Pooled drug test results. Numbers come from NIAID ChemDB, via PubChem.

Common to all: target-level tests; agent: Hepatitis C virus; target: Nonstructural protein 5B; read-out: IC50

a–b is a range or a potency band.

compound | value
COc1nc(NCCN2CCOCC2)nc(Nc2ccc3cn[nH]c3c2)n1 | >10 µg/mL
CCCN(C1=C(O)CC(C2CCCC2)(C2CCCC2)OC1=O)c1cccc(N)c1 | 10–50 µM
O=C(O)c1ccc(N2C(=O)C(=Cc3ccc(-c4ccc(Br)cc4)o3)SC2=S)cc1 | ≤1 µM
CCOC(=O)C1=CN(N2CCN(c3nc(Nc4ccc5[nH]ncc5c4)nc(OC)n3)CC2)C(SC)N=C1 | >10 µg/mL
CNC(=O)c1c(-c2ccc(F)cc2)oc2cc(-c3c(C)noc3C)c(OC)cc12 | ≤0.5 µM
COc1nc(NCCCn2ccnc2)nc(Nc2ccc3cn[nH]c3c2)n1 | 1–10 µg/mL
CNC(=O)c1c(-c2ccc(F)cc2)oc2cc(C(=O)CO)c(OC)cc12 | ≤0.5 µM
CCOC(=O)C1CCN(c2nc(Nc3ccc4[nH]ncc4c3)nc(OC)n2)CC1 | >10 µg/mL
CCCOc1cc2c(C(=O)NC)c(-c3ccc(F)cc3)oc2cc1N(CS(C)(=O)=O)OC | ≤0.5 µM
O=C1NC(=S)S/C1=C/c1ccc(-c2cc(C(F)(F)F)ccc2Cl)o1 | ≤1 µM
O=C(O)C(=O)/C=C(\O)c1cccc(NS(=O)(=O)c2cc(Cl)c(Cl)cc2Cl)c1 | 0.68 µM
Cc1cc(SC2=C(O)CC(CCc3cccc(O)c3)(c3ccccc3)OC2=O)c(C(C)(C)C)cc1CO | >50 µM
CNC(=O)c1c(-c2ccc(F)cc2)oc2cc(-c3c(C4CC4)noc3COC)c(OC)cc12 | ≤0.5 µM
CC(C(=O)O)N1C(=O)C(=Cc2ccc(-c3cc(C(F)(F)F)ccc3Cl)o2)SC1=S | ≤1 µM
COc1nc(Nc2ccc3[nH]ncc3c2)nc(N2CCC(O)CC2)n1 | >10 µg/mL
CCCc1ccc(-c2ccc(C=C3SC(=S)N(c4ccc(C(=O)O)cc4)C3=O)o2)s1 | ≤1 µM
Cc1cc(C)n2nc(SC3=C(O)CC(CCc4ccc(OC(C)C)c(Cl)c4)(C4CCCC4)OC3=O)nc2n1 | <1 µM
O=C(O)c1ccc(N2C(=O)C(=Cc3ccc(-c4ccco4)o3)SC2=S)cc1 | ≤1 µM
CNC(=O)c1c(-c2ccc(F)cc2)oc2cc(-c3cnco3)c(OC(C)C)cc12 | ≤0.5 µM
O=C(O)CN1C(=O)C(=Cc2ccc(-c3ccc(Cl)c(Cl)c3)s2)SC1=S | ≤1 µM
CNC(=O)c1c(-c2ccc(Br)c(F)c2)oc2ccc(OC(C)C)cc12 | ≤0.5 µM
O=C(O)c1ccc(N2C(=O)C(=Cc3ccc(-c4ccccc4)o3)SC2=S)cc1 | ≤1 µM
CON1C(Nc2ccc3cn[nH]c3c2)=NC(NC(C)C)=NC1NC(C)C | >10 µg/mL
O=C(O)CCN1C(=O)C(=Cc2ccc(-c3sccc3Cl)o2)SC1=S | ≤1 µM
CNC(=O)c1c(-c2ccc(F)cc2)oc2cc(S(=O)(=O)N3CCSCC3)c(OC(C)C)cc12 | ≤0.5 µM
COc1ccc(CCC2(C3CCCC3)CC(=O)C(C(=O)c3ccccc3)C(=O)O2)c(OC)c1 | 10–50 µM
CNC(=O)c1c(-c2ccc(F)cc2)oc2cc(N3CCOCC3)c(OCCC#N)cc12 | ≤0.5 µM
COc1nc(Nc2ccc3[nH]ncc3c2)nc(N2CCOCC2)n1 | 0.1–1 µg/mL

The last 3 rows once more:

compound	value
COc1ccc(CCC2(C3CCCC3)CC(=O)C(C(=O)c3ccccc3)C(=O)O2)c(OC)c1	10–50 µM
CNC(=O)c1c(-c2ccc(F)cc2)oc2cc(N3CCOCC3)c(OCCC#N)cc12	≤0.5 µM
COc1nc(Nc2ccc3[nH]ncc3c2)nc(N2CCOCC2)n1	0.1–1 µg/mL

Lines come from different laboratories, so protocols vary. ICn: concentration for n% inhibition.